Inhibition data for 101 molecules are collected here from PubChem BioAssay AID1259311 (ICCB-Longwood Screening Facility, Harvard Medical School, 2017).

“And” between values parts separate entries of the source, which are not always exact repeats. Equal entries are not always repeated. The entries are a selection whose mix differs from that of the whole data set. The source made the active and inactive calls. Rule as the data show it: active = inhibition above about 85%; inactive = the rest.

The nature of the experiment: growth inhibition of S. aureus RN4220, primary screen, OD600 (AID 1259311).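 Also: plate controls were untreated cells for no effect and reference antibiotic for full effect.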 Conditions: OD600, 16 h, stronger effect = higher value.
With `O=[N+]([O-])c1cccc(NC2=NCC(CBr)S2)c1` (stereo unspecified), the inhibition (usually the drop in the measured response relative to a control, in per cent) is inactive: 3.44%.

For the molecule `O=C(O)CNc1ccc([As](=O)(O)O)cc1`, the inhibition was inactive: 1.82%.

With `CC(C)(C)C(=O)NC(Sc1ccncn1)C(Cl)(Cl)Cl` (stereo unspecified), the inhibition was inactive: 2%.

Regarding `O=[N+]([O-])c1ncn(CCn2ncnc2[N+](=O)[O-])n1`, the inhibition is inactive: -1.84%.

As to `O=C(Nc1cc([As](=O)(O)O)ccc1O)c1ccccc1`, the inhibition is inactive: 2.2%.

`CP(=O)(OC12CC3CC(CC(C3)C1)C2)OC12CC3CC(CC(C3)C1)C2`: the inhibition is inactive: 15.7%.

Take `Nc1ccc2c(ccc3cccnc32)n1.O=[N+]([O-])c1cc([N+](=O)[O-])c(O)c([N+](=O)[O-])c1`: the inhibition is inactive: 1.65%.

In the case of `O=P1(N(CCCl)CCCl)OCCCS1` (stereo unspecified), the inhibition is inactive: 1.99%.

Turning to `CN(C)C(=O)c1c([N+](=O)[O-])cc([N+](=O)[O-])cc1[N+](=O)[O-]`, the inhibition was inactive: 24.9%.

For `CN(C(=O)Cc1ccc(Cl)c(Cl)c1)C1CCCCC1N1CCCC1` (stereo unspecified), the inhibition was inactive: 4.69% and inactive: 6.24% and inactive: 8.61%.

As for `CC1CCN(C(=O)Oc2c(Cl)cc(Cl)c3cccnc23)CC1`, the inhibition was inactive: 9.06%.

As to `CC(C)(C)c1ccc(OP(C)(=O)O)cc1`, the inhibition was inactive: 1.38%.

In the case of `Nc1ccc([As](=O)(O)c2ccc(N)cc2)cc1`, the inhibition is inactive: 4.47%.

On to `COc1ccccc1OP(C)(=O)Nc1ccccc1Br` (stereo unspecified), for which the inhibition was inactive: 6.5%.

Consider `C[N+]1=C2C=CC=CC=C2SC12C([N+](=O)[O-])=CC([N+](=O)[O-])=C[C-]2[N+](=O)[O-]` (stereo unspecified), for which the inhibition is inactive: 52.5%.

As for `CP(=O)(Nc1ccc(Cl)cc1)Oc1ccc(F)cc1` (stereo unspecified), the inhibition was inactive: 4.51%.

In the case of `COc1ccccc1OP(C)(=O)Nc1c(C)n(C)n(-c2ccccc2)c1=O` (stereo unspecified), the inhibition was inactive: -0.505%.

For the molecule `O=[N+]([O-])c1cccc2n[nH]nc12`, the inhibition was inactive: -3.44%.

Turning to `CC(=O)N1C2C3N(C(C)=O)C1C1N(C(C)=O)C(C(N1C(C)=O)N3C(C)=O)N2C(C)=O`, the inhibition is inactive: 5.2%.

With `O=C(OCCCN1CCCC1)C(O)(c1ccccc1)C1CCCCC1` (stereo unspecified), the inhibition was inactive: 0.904%.

For the molecule `CP(=O)(Oc1ccccc1)N1CCOC1=O` (stereo unspecified), the inhibition is inactive: -0.286%.

For the molecule `Cc1ccc(NP(=O)(Oc2ccccc2)Oc2ccccc2)nc1`, the inhibition is inactive: 1.43%.

In the case of `CCc1nc2c(n1)c1c(non1O)c1c2no[n+]1[O-]`, the inhibition is inactive: -3.69%.

On to `O=[N+]([O-])c1cc([N+](=O)[O-])c(CCNc2ccccc2)c([N+](=O)[O-])c1`, for which the inhibition was inactive: 17.3%.

Turning to `CCc1ccc(OP(C)(=O)Nc2cccnc2)cc1` (stereo unspecified), the inhibition was inactive: 6.29%.

For `CCN(CC)CC(O)COC(=O)C(O)(c1ccccc1)C1CCCCC1` (stereo unspecified), the inhibition was inactive: -2.06%.

In the case of `COc1ccc(OP(C)(=O)Nc2ccc(Br)cc2)cc1` (stereo unspecified), the inhibition is inactive: 0.27%.

As for `COc1ccc(C2=NCC(CBr)S2)cc1` (stereo unspecified), the inhibition is inactive: 3.74%.

For the molecule `CP(=O)(Nc1ccccn1)Oc1ccccc1` (stereo unspecified), the inhibition is inactive: -1.09%.

On to `COc1ccccc1OP(C)(=O)Nc1ccc(C)cc1C` (stereo unspecified), for which the inhibition was inactive: 3.8%.

For the molecule `CCc1ccc(OP(C)(=O)O)cc1`, the inhibition is inactive: 25.9%.

Take `CC(C)CC(=O)NC(Sc1ccc(Cl)cc1)C(Cl)(Cl)Cl` (stereo unspecified): the inhibition is inactive: 0.269%.

With `O=[N+]([O-])c1cc([N+](=O)[O-])c(Nc2ccccn2)c([N+](=O)[O-])c1`, the inhibition was active: 94.7%.

In the case of `Cc1c(NP(C)(=O)Oc2ccc(C(C)C)cc2)c(=O)n(-c2ccccc2)n1C` (stereo unspecified), the inhibition was inactive: 3.23%.

As to `Nc1cc(N)c2nonc2c1[N+](=O)[O-]`, the inhibition was inactive: -1.07%.

For `Oc1ccccc1CNc1ccccn1`, the inhibition was inactive: 3.17%.

Turning to `O=C(NC(Sc1ccncn1)C(Cl)(Cl)Cl)c1ccccc1` (stereo unspecified), the inhibition is inactive: -5.48%.

Turning to `COc1ccc(OP(C)(=O)Nc2ccccn2)cc1` (stereo unspecified), the inhibition is inactive: -0.379%.

`COc1ccccc1OP(=O)(Nc1ccc(C)cn1)Oc1ccccc1OC`: the inhibition is inactive: 4.83%.

Take `Cc1ccc(OP(=O)(Nc2nccs2)Oc2ccc(C)cc2)cc1`: the inhibition was inactive: 3.84%.

For `Clc1ccc(Cl)c(NC2=NCC(CBr)S2)c1` (stereo unspecified), the inhibition is inactive: 17.9%.

For `CN(C)CCOC(=O)C(O)(c1ccccc1)C1CCCC1` (stereo unspecified), the inhibition is inactive: 7.32%.

On to `CN1CCCC(OC(=O)C(c2ccccc2)c2ccccc2)C1` (stereo unspecified), for which the inhibition was inactive: -0.61%.

In the case of `NC(=O)c1cc([N+](=O)[O-])cc([N+](=O)[O-])c1N`, the inhibition is inactive: 12.3%.

Turning to `COc1ccccc1OP(C)(=O)Nc1ccc(Br)cc1` (stereo unspecified), the inhibition is inactive: 4.36%.

On to `CC(C)N1C(=O)CC2(CCN(CCOC(=O)C(O)(c3ccccc3)c3ccccc3)CC2)C1=O`, for which the inhibition is inactive: 2.07%.

For `CCN(N=Nc1nonc1N)c1nonc1N`, the inhibition is inactive: 6.31%.

Turning to `CP(=O)(Nc1ccc(Cl)cc1Cl)Oc1ccccc1` (stereo unspecified), the inhibition is inactive: -3.45%.

For `CCOP(=O)(Nc1ccccc1)OCC`, the inhibition was inactive: 12.7%.

For the molecule `Cc1cc(SC(NC(=O)c2ccc(F)cc2)C(Cl)(Cl)Cl)ncn1` (stereo unspecified), the inhibition was inactive: -5.49%.

With `Cc1ccc(NP(=O)(Oc2ccccc2F)Oc2ccccc2F)nc1`, the inhibition was inactive: 2.38%.

For `COc1ccccc1OP(C)(=O)Nc1ccc(C)c(C)c1` (stereo unspecified), the inhibition is inactive: -13.7%.

For the molecule `CC(C)=NN=C(N)N[N+](=O)[O-]`, the inhibition is inactive: -2.92%.

Take `O=C(O)c1ccccc1[As](=O)(O)O`: the inhibition is inactive: 9.09%.

Regarding `CC(=O)Nc1ccc([As](=O)(O)O)cc1`, the inhibition is inactive: -0.29%.

With `CCCC1OP(N)(=O)OCC1CC` (stereo unspecified), the inhibition was inactive: -0.33%.

For `CCN(CC)CC(C)C(C)OC(=O)C(O)(c1ccccc1)c1ccccc1` (stereo unspecified), the inhibition is inactive: 8.3%.

Consider `O=C1C(O)=C([N+](=O)[O-])C(=O)C(O)=C1[N+](=O)[O-]`, for which the inhibition is inactive: 0.881%.

Consider `Cc1cc(C)cc(OP(C)(=O)Nc2cccc(C(F)(F)F)c2)c1` (stereo unspecified), for which the inhibition was inactive: 4.44%.

Consider `O=P(Nc1nc2ccc(Cl)cc2s1)(c1ccccc1)c1ccccc1`, for which the inhibition is inactive: 5.37%.

Consider `CP(=O)(Nc1ccccc1)Oc1ccc(F)cc1` (stereo unspecified), for which the inhibition was inactive: 2.32%.

For the molecule `Cc1ccccc1OP(=O)(Nc1ccccn1)Oc1ccccc1C`, the inhibition was inactive: 9.14%.

Turning to `CC(NC(=O)COC(=O)C(O)(c1ccccc1)c1ccccc1)c1ccccc1` (stereo unspecified), the inhibition was inactive: 3.91%.

In the case of `CN(C)C(=O)Oc1noc2ccccc12`, the inhibition was inactive: 4.16%.

For `O=[N+]([O-])c1cc([N+](=O)[O-])c(OC2CCCCC2O)c([N+](=O)[O-])c1` (stereo unspecified), the inhibition is inactive: 2.43%.

For the molecule `Cc1c([N+](=O)[O-])cc([N+](=O)[O-])c(Br)c1[N+](=O)[O-]`, the inhibition was inactive: 5.85%.

For the molecule `COC(=O)c1cc2c(s1)N=C(c1ccccc1)N(C)P2(=O)N1CCOCC1` (stereo unspecified), the inhibition was inactive: 5.12%.

Regarding `Cc1ccc(OP(=O)(Nc2ccccn2)Oc2ccc(C)cc2)cc1`, the inhibition is inactive: 6.03%.

For `CC(=O)NC(SC(=S)N(CC(C)C)CC(C)C)C(Cl)(Cl)Cl` (stereo unspecified), the inhibition was inactive: -2.89%.

On to `O=C(OC1CN2CCC1CC2)c1ccccc1` (stereo unspecified), for which the inhibition is inactive: 2.91%.

With `CCN(CC)CCCOC(=O)C(O)(c1ccccc1)C1CCCCC1` (stereo unspecified), the inhibition is inactive: 2.52%.

On to `CC1OP(=O)(Oc2ccccc2)CC2OC12` (stereo unspecified), for which the inhibition was inactive: 0.933%.

Turning to `CCC(=O)N1C2C3N(C(=O)CC)C1C1N(C(=O)CC)C(C(N1C(=O)CC)N3C(=O)CC)N2C(=O)CC`, the inhibition is inactive: 2.06%.

Turning to `O=P1(N(CCCl)CCCl)OCCC2CCCCN21` (stereo unspecified), the inhibition is inactive: 1.46%.

For the molecule `CCOC(=O)c1ccc(NP(C)(=O)Oc2ccc(F)cc2)cc1` (stereo unspecified), the inhibition was inactive: 3.46%.

Take `COc1ccc(OP(C)(=O)Nc2ccc(SC(F)(F)F)cc2)cc1` (stereo unspecified): the inhibition was inactive: 4.11%.

As for `O=C(NC1CCS(=O)(=O)C1)NP(=S)(Oc1ccccc1)Oc1ccccc1` (stereo unspecified), the inhibition was inactive: 7.96%.

With `c1ccc(-c2nn[nH]n2)c(-c2nn[nH]n2)c1`, the inhibition is inactive: 7.87%.

As to `Cc1ccc(NP(=O)(Oc2cccc(C)c2)Oc2cccc(C)c2)nc1`, the inhibition is inactive: 1.5%.

With `CC(=O)Nc1ccc([As](=O)(O)O)c(O)c1`, the inhibition was inactive: 5.16%.

For the molecule `CC(=O)Nc1ccc(Oc2c([N+](=O)[O-])cc([N+](=O)[O-])cc2[N+](=O)[O-])cc1`, the inhibition is inactive: 14.8%.

Take `NC(=NO)c1c(N)no[n+]1[O-]`: the inhibition was inactive: 0.979%.

Regarding `CC(=O)c1ccc(N2CC2c2ccncc2)cc1` (stereo unspecified), the inhibition was inactive: 1.17%.

As to `O=C(OC1CN2CCC1CC2)c1ccc([N+](=O)[O-])cc1` (stereo unspecified), the inhibition is inactive: 4.15%.

As for `Cc1ccccc1CN(C)C(=O)COC(=O)C(O)(c1ccccc1)c1ccccc1`, the inhibition is inactive: 8.86%.

For `O=C(OCCN1CCN(CCOCc2ccccc2)CC1)C(O)(c1ccccc1)c1ccccc1`, the inhibition was inactive: 6.2%.

For `CCc1cc(O)c([N+](=O)[O-])c(C)c1[N+](=O)[O-]`, the inhibition was inactive: 39.2%.

Regarding `CP(=O)(Nc1ccccc1F)Oc1ccccc1` (stereo unspecified), the inhibition was inactive: 2.7%.

For `CC(C)(C)C(=O)NC(Sc1ccccc1)C(Cl)(Cl)Cl` (stereo unspecified), the inhibition was inactive: 5.06%.

With `CN(C(=O)Cc1ccccc1)C1CC[C@]2(CCCO2)CC1N1CCCC1` (stereo partly specified), the inhibition is inactive: 3.04%.

Turning to `O=P1(Nc2nc3ccc(Cl)cc3s2)COc2ccccc2O1` (stereo unspecified), the inhibition was inactive: 4.54%.

Turning to `CCOc1ccc(C2=NCC(CBr)S2)cc1` (stereo unspecified), the inhibition is inactive: 1.79%.

Turning to `Cc1ccccc1NP(C)(=O)Nc1ccccc1C`, the inhibition is inactive: 0.0985%.

On to `CP(=O)(Nc1ccc2c(c1)OCCO2)Oc1ccccc1` (stereo unspecified), for which the inhibition was inactive: -4.88%.

Take `CCOP(C)(=S)SCC(=O)NC(C)(CC)C(=O)O` (stereo unspecified): the inhibition was inactive: 3.47%.

Turning to `c1nnnn1CCn1cnnn1`, the inhibition was inactive: 3.84%.

For `CP(=O)(Nc1ccc(SC(F)(F)F)cc1)Oc1ccc(F)cc1` (stereo unspecified), the inhibition was inactive: 3%.

In the case of `CC(C)C(=O)NC(Sc1ccccc1)C(Cl)(Cl)Cl` (stereo unspecified), the inhibition is inactive: 7.25%.

On to `O=P(Nc1nccs1)(c1ccccc1)c1ccccc1`, for which the inhibition was inactive: 1.01%.

As for `CCNC(=S)N=C(N)N[N+](=O)[O-]`, the inhibition was inactive: 2.79%.

For `Cc1c(C(c2ccc3c(c2)OCO3)c2c(C)n(C)n(-c3ccccc3)c2=O)c(=O)n(-c2ccccc2)n1C.O=[N+]([O-])c1cc([N+](=O)[O-])c(O)c([N+](=O)[O-])c1`, the inhibition was inactive: -4.43%.
